4 compounds from ChEMBL document CHEMBL4837229 (Eur J Med Chem, 2021) can be followed below.

In assay [1] the target is Neuraminidase (Influenza A virus) (UniProt B4URF0). As to the kind of experiment: Potency index, ratio of oseltamivir carboxylate IC50 to test compound IC50 for inhibition of Influenza A virus (A/Anhui/1/2005(H5N1) Neuraminidase using MUNANA as substrate preincubated for 5 to 15 mins followed by substrate addition and measured after 30 mins by fluorescence spectrophotometric ….

Assay [2] concerns Neuraminidase (Influenza A virus (strain A/USSR/90/1977 H1N1)), P03469 [H274Y]. The assay is described as follows: Potency index, ratio of oseltamivir carboxylate IC50 to test compound IC50 for inhibition of Influenza A virus (A/California/04/2009 (H1N1)) Neuraminidase H274Y mutant using MUNANA as substrate preincubated for 5 to 15 mins followed by substrate addition and measured after 30 mins by fluorescence ….

In the case of `CCC(CC)O[C@@H]1C=C(C(=O)O)C[C@H](NC(=O)NN)[C@H]1NC(C)=O`, the Ratio IC50 in assay [1] is 4.12; in assay [2], 6.23.

On to `CCC(CC)O[C@@H]1C=C(C(=O)O)C[C@H](NC(N)=O)[C@H]1NC(C)=O`, for which the Ratio IC50 is 0.29 in assay [1] and 6.1 in assay [2].

Turning to `CCCCNNC(=O)N[C@H]1CC(C(=O)O)=C[C@@H](OC(CC)CC)[C@@H]1NC(C)=O`, the Ratio IC50 in assay [1] is 0.15; in assay [2], 5.63.

Regarding `CCCNNC(=O)N[C@H]1CC(C(=O)O)=C[C@@H](OC(CC)CC)[C@@H]1NC(C)=O`, the Ratio IC50 in assay [2] is 2.16.
